Pooled drug test results. Numbers come from NIAID ChemDB, via PubChem.

All rows: growth or infection tests; organism: Herpes simplex virus 1

Rows are shuffled and stem from different studies.

compound,strain or isolate,cells,read by,endpoint,dose,value
Cc1c(NC(=O)OC(C)(C)C)ccc2nc(NC(C)(C)C(=O)NCCc3ccccn3)oc(=O)c12,,VERO,plaque count,EC90,,>25 µM
Cc1ccccc1Cn1cnc(=N)c2[nH]cnc21,,BSC-1,plaque count,inhibition,6 µg/mL,0%
CCN(C(=O)N(C)CCc1ccccn1)c1nc2ccc(NC(=O)CCCNC(=O)c3cnccc3N(C)C)c(C)c2c(=O)o1,,VERO,plaque count,EC90,,>12.5 µM
CCCCn1cnc(=N)c2[nH]cnc21,,BSC-1,plaque count,inhibition,12 µg/mL,0%
Cc1c(NC(=O)c2ccc3c(c2)OCO3)ccc2nc(NC(C)(C)C(=O)N(C)CCc3ccccn3)oc(=O)c12,,VERO,plaque count,EC90,,12.5 µM
CCn1cnc(=N)c2[nH]cnc21,,BSC-1,plaque count,inhibition,50 µg/mL,0%
Nc1nc2c(ncn2COC(CO)CO)c(=O)[nH]1,KOS mutant PFA-R4,WI-38,plaque count,inhibition,2.6 µM,90%
Nc1ncnc2c1ncn2[C@@H]1O[C@H](CO)[C@@H](O)[C@@H]1O,F,HL,virus yield,inhibition,5 µg/mL,96%
O=c1[nH]c(=O)n([C@H]2C[C@H](O)[C@@H](CO)O2)cc1/C=C/C(F)(F)F,B2006 (TK-),PRK,virus yield,EC99,,>100 µg/mL
O=c1ccn([C@H]2C[C@@H](O)[C@H](CO)O2)c(=O)[nH]1,C42,VERO,plaque count,inhibition,100 µM,<0%
N=c1ncn(Cc2ccc(Cl)cc2Cl)c2nc[nH]c12,,BSC-1,plaque count,inhibition,12 µg/mL,0%
Cc1c(NC(=O)OC(C)(C)C)ccc2nc(N(CC(C)C)C(=O)NCc3ccncc3)oc(=O)c12,,VERO,plaque count,EC90,,>25 µM
C/C=C/c1cn([C@@H]2O[C@H](CO)[C@@H](O)[C@@H]2O)c(=O)[nH]c1=O,C42,VERO,plaque count,inhibition,250 µM,12%
CCN(C(=O)N(C)CCc1ccncc1)c1nc2ccc(NC(=O)OC(C)(C)C)c(C)c2c(=O)o1,,VERO,plaque count,EC90,,<3.2 µM
C/C=C/c1cn([C@H]2C[C@H](O)[C@@H](CO)O2)c(=O)[nH]c1=O,C42ACG-R,VERO,plaque count,inhibition,10 µM,9%
C/C=C/c1cn([C@H]2C[C@H](O)[C@@H](CO)O2)c(=O)[nH]c1=O,KOS,PRK,virus yield,EC99,,0.15 µg/mL
Nc1ccn([C@@H]2O[C@H](CO)[C@@H](O)[C@@H]2O)c(=O)n1,CUT,,,MIC,,2.2–4.4 µg/mL
Cc1c(NC(=O)c2ccccc2I)ccc2nc(NC(C)(C)C(=O)N(C)CCc3ccccn3)oc(=O)c12,,VERO,plaque count,EC90,,>12.5 µM

ECn is the concentration giving n% inhibition of infection, replication or growth. Two numbers with a dash give a range or band. Inhibition is in % at the dose shown (toxicity tests: loss of growth or viability). Blank or dashed fields: not listed here.